Measured values from several laboratories, pooled; numbers as filed in NIAID ChemDB.

All rows: growth or infection tests; agent: Candida albicans

An empty or dashed field is not shown. Conditions beyond the fields shown may differ between rows. ECn: concentration that inhibits the pathogen or its effect by n%. A number after MIC or MFC names an inhibition level or a share of isolates. Inhibition is in % at the dose shown (toxicity tests: loss of growth or viability).

compound	read by	tested at	conditions	strain or isolate	measure	result
Cc1ccc(-n2cc(C(C)(C)O)nn2)cc1C	broth dilution	2048 µg/mL	-	URM 4124	inhibition	0%
COc1ccc(C(c2nccc3ccccc23)n2ccnc2)cc1.O=[N+]([O-])O	-	-	-	44 strains	Mean MIC	>256 µg/mL
CC(C)(O)c1cn(-c2ccc([N+](=O)[O-])cc2)nn1	broth dilution	2048 µg/mL	-	URM 4987	inhibition	0%
N=C(N)c1ccc2nc(-c3ccc(-c4nc5ccc(C(=N)N)cc5[nH]4)[nH]3)[nH]c2c1	-	-	-	Isolate 3022 fluconazole-resistant	MFC	0.78 µg/mL
COc1ccc(C(Cc2cccc(N)c2)n2ccnc2)cc1	-	-	-	34 strains	Geometric mean MIC	>256 µg/mL
C=CCSS(=O)CC=C	broth dilution	-	-	Clinical Isolate 3151	MIC50	0.2 µg/mL
Clc1ccccc1C(c1ccccc1)(c1ccccc1)n1ccnc1	broth dilution	-	pH 7	10 isolates	EC90	0.03 µg/mL
CCCn1cc[n+](COCCCCCOC[n+]2ccn(CCC)c2)c1	agar diffusion	-	-	ATCC 90028	MIC100	736 µM
Cc1ccc(-c2c3c(N)c4c(nc3nc3c2c(C)nn3-c2ccccc2)CCC4)cc1	broth dilution / absorbance	-	-	CCC 130	MIC100	125 µg/mL
C[C@H]1[C@H](O)[C@@H](C)/C=C/C=C/C=C/C=C/C=C/C=C/C=C/[C@H](O[C@@H]2O[C@H](C)[C@@H](O)[C@H](N)[C@@H]2O)C[C@@H]2O[C@](O)(C[C@@H](O)C[C@@H](O)CC[C@H](O)[C@@H](O)C[C@@H](O)CC(=O)O[C@H]1C)C[C@H](O)[C@H]2C(=O)O	-	-	-	10 strains (fluconazole-resistant)	Geometric mean MIC	0.11 µg/mL
COc1ccc(-c2c3c(N)c4c(nc3nc3c2c(C)nn3-c2ccccc2)CCCCC4)cc1	broth dilution / absorbance	-	-	ATCC 10231	MIC80	125 µg/mL
CC[C@@H]([C@H](C)O)n1ncn(-c2ccc(N3CCN(c4ccc(OC[C@@H]5CO[C@@](Cn6cncn6)(c6ccc(F)cc6F)C5)cc4)CC3)cc2)c1=O	-	-	-	55 strains (fluconazole-susceptible)	Geometric mean MIC	<0.003 µg/mL
CCCCCCCCCCn1cc[n+](COCCCCOC[n+]2ccn(CCCCCCCCCC)c2)c1	agar diffusion	-	-	ATCC 90028	MIC100	8 µM
COc1ccc(C(Cc2ccccc2-n2cccc2)n2ccnc2)cc1	-	-	-	34 strains	Geometric mean MIC	26.96 µg/mL
Oc1ccc2cc1Oc1ccc(cc1)CCc1ccc(c(O)c1)-c1c(O)cccc1CC2	broth dilution	-	-	SC5314	MIC80	16 µg/mL
CCC(C)CC(C)CCCCCCCCC(=O)N[C@H]1C[C@@H](O)[C@H](NCCN)NC(=O)[C@@H]2[C@@H](O)CCN2C(=O)[C@H]([C@H](O)CCN)NC(=O)[C@H]([C@H](O)[C@@H](O)c2ccc(O)cc2)NC(=O)[C@@H]2C[C@@H](O)CN2C(=O)[C@H]([C@@H](C)O)NC1=O	broth dilution	-	pH 7	10 isolates	EC90	0.125 µg/mL
CCC(C)n1ncn(-c2ccc(N3CCN(c4ccc(OC[C@H]5CO[C@](Cn6cncn6)(c6ccc(Cl)cc6Cl)O5)cc4)CC3)cc2)c1=O	-	-	-	Fluconazole-resistant 4 isolates pooled	MFC90	>8 µg/mL
CC(C)(O)c1cn(-c2cccc3ccccc23)nn1	broth dilution	2048 µg/mL	-	URM 4126	inhibition	0%
COc1ccc(C(Cc2ccccc2[N+](=O)[O-])n2ccnc2)cc1	-	-	-	34 strains	Geometric mean MIC	312 µg/mL
Fc1ccc(COc2ccc(C(c3cccc4ccccc34)n3ccnc3)cc2)cc1.O=[N+]([O-])O	-	-	-	16 strains	Mean MIC	≥256 µg/mL
CCCCCCn1cc[n+](COCCCOC[n+]2ccn(CCCCCC)c2)c1	agar diffusion	-	-	ATCC 90028	MIC100	82 µM
C=CCc1ccc(OC)c(OC)c1	turbidity	-	-	3078	MIC90	345 µg/mL
O=C(Nc1ccc(Cn2ccnc2)cc1)c1ccc([N+](=O)[O-])cc1	-	-	-	27 strains	Mean MIC	160 µg/mL
CCCCCCCCn1cc[n+](COCCCCOC[n+]2ccn(CCCCCCCC)c2)c1	agar diffusion	-	-	ATCC 90028	MIC100	9 µM
NCCCC[C@H](NC(=O)[C@@H](N)CCCCN)C(=O)N[C@@H](CCC(N)=O)C(=O)N[C@@H](CCCN=C(N)N)C(=O)O	-	25 µM	-	ATCC 10231	inhibition	0%
CCCCn1cc[n+](COCCCCCCOC[n+]2ccn(CCCC)c2)c1	agar diffusion	-	-	ATCC 90028	MIC100	345 µM
Cc1ccc(-c2c3c(N)c4c(nc3nc3c2c(C)nn3-c2ccccc2)CCCCC4)cc1	broth dilution / absorbance	-	-	CCC 128	MIC100	125 µg/mL
CC(=O)OC[C@H]1O[C@@H](O[C@@H]2[C@@H](N=[N+]=[N-])[C@H](O)[C@H](O)[C@H]3OC(C)(C)O[C@H]32)[C@H](OC(C)=O)[C@@H](OC(C)=O)[C@H]1OC(C)=O	broth dilution / turbidity	125 µg/mL	-	ATCC 10231	inhibition	68.42%
CCC(C)n1ncn(-c2ccc(N3CCN(c4ccc(OC[C@H]5CO[C@](Cn6cncn6)(c6ccc(Cl)cc6Cl)O5)cc4)CC3)cc2)c1=O	-	-	-	8 strains	Geometric mean MIC	0.071 µg/mL
C[C@@H](c1ncncc1F)[C@](O)(Cn1cncn1)c1ccc(F)cc1F	broth dilution	-	pH 5	15 isolates	EC90	0.03 µg/mL
O=C(Nc1ccc(Cn2ccnc2)cc1)c1ccc(Cl)cc1[N+](=O)[O-]	-	-	-	27 strains	Mean MIC	158 µg/mL
Clc1ccc(COC(Cn2ccnc2)c2ccc(Cl)cc2Cl)c(Cl)c1	broth dilution	-	pH 7	10 isolates	EC90	1 µg/mL
CCC(C)n1ncn(-c2ccc(N3CCN(c4ccc(OC[C@H]5CO[C@](Cn6cncn6)(c6ccc(Cl)cc6Cl)O5)cc4)CC3)cc2)c1=O	-	-	-	30 isolates	Geometric mean MIC	0.22 µg/mL
O=C(Nc1ccccc1Cn1ccnc1)c1cccc(Cl)c1	-	-	-	27 strains	Mean MIC	156 µg/mL
Cc1ccc(C(C)C)cc1	-	-	-	M1	MLC	>10 µg/mL
Clc1cc(Br)ccc1C=Nc1cccc(Cn2ccnc2)c1	-	-	-	27 strains	Mean MIC	131 µg/mL
Cc1ccc(-c2c3c(N)c4c(nc3nc3c2c(C)nn3-c2ccccc2)CCCC4)cc1	broth dilution / absorbance	-	-	CCC 128	MIC50	15.6 µg/mL
CCCCCCn1cc[n+](COCCOC[n+]2ccn(CCCCCC)c2)c1	agar diffusion	-	-	ATCC 90028	MIC100	86 µM
Clc1cccc(Cl)c1COc1ccc(C(c2ccc(-c3ccccc3)cc2)n2ccnc2)cc1.O=[N+]([O-])O	-	-	-	16 strains	Mean MIC	≥256 µg/mL
OC(CN1CCN(c2ccc(OCc3ccncc3)cc2)CC1)(Cn1cncn1)c1ccc(F)cc1F	-	-	-	ATCC 76615	MIC80	≤0.063 µg/mL
Clc1ccc(COc2ccc(C(c3cccc4ccccc34)n3ccnc3)cc2)c(Cl)c1.O=[N+]([O-])O	-	-	-	16 strains	MIC90	≥256 µg/mL
CCCCCCCn1cc[n+](COCCCCOC[n+]2ccn(CCCCCCC)c2)c1	agar diffusion	-	-	ATCC 90028	MIC100	10 µM
Fc1ccc(COc2ccc(C(c3nccc4ccccc34)n3ccnc3)cc2)cc1	-	-	-	17 strains	Mean MIC	≥256 µg/mL
CC(C)(O)c1cn(-c2ccc3ccccc3c2)nn1	broth dilution	2048 µg/mL	-	URM 4606	inhibition	0%
CCC(C)n1ncn(-c2ccc(N3CCN(c4ccc(OC[C@H]5CO[C@](Cn6cncn6)(c6ccc(Cl)cc6Cl)O5)cc4)CC3)cc2)c1=O	-	-	-	A28235	MFC99	>16 µg/mL

The first 3 rows once more:

compound | read by | tested at | conditions | strain or isolate | measure | result
Cc1ccc(-n2cc(C(C)(C)O)nn2)cc1C | broth dilution | 2048 µg/mL | - | URM 4124 | inhibition | 0%
COc1ccc(C(c2nccc3ccccc23)n2ccnc2)cc1.O=[N+]([O-])O | - | - | - | 44 strains | Mean MIC | >256 µg/mL
CC(C)(O)c1cn(-c2ccc([N+](=O)[O-])cc2)nn1 | broth dilution | 2048 µg/mL | - | URM 4987 | inhibition | 0%